This assay addresses integrin αvβ6 (UniProt P06756). The assay is described as follows: flow cytometry on K562 αvβ6:mCherry cells, apparent KD from Hill fit, mean±s.d. (In general: Flow cytometry measures light scatter and fluorescence of single cells or particles in a stream.)

The chains behind the UniProt entries cited, without tags or fusion partners. Residues count along the entry.
UniProt P06756, 31-1048 limits assumed, chain 1 of 2: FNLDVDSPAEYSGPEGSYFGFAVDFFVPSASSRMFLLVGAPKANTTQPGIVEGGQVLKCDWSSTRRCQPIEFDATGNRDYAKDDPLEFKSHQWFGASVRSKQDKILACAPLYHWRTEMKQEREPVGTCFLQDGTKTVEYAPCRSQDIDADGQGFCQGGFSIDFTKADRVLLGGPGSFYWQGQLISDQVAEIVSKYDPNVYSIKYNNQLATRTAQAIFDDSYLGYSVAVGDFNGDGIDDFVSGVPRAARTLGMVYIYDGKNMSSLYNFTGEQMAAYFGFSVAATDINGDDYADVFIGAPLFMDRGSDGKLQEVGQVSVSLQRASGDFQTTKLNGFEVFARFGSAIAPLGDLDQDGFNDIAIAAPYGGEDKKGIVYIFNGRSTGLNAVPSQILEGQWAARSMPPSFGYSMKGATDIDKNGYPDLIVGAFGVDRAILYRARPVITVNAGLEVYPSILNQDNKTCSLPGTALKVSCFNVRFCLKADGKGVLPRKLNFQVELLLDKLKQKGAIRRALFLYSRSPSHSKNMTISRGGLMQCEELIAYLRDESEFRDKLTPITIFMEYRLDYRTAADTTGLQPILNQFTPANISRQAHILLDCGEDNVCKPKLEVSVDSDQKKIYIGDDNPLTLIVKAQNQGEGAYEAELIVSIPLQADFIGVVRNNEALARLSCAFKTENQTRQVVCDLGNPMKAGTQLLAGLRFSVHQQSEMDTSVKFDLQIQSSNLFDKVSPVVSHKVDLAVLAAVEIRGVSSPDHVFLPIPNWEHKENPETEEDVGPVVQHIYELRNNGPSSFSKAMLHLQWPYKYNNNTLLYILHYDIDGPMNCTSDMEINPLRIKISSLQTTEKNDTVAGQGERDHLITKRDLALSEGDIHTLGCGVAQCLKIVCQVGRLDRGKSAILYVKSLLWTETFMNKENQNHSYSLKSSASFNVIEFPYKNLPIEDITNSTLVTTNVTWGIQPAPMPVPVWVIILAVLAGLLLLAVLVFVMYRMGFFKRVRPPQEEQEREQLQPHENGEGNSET

Regarding A20FMDV2 (peptide), the Kd worked out at 63.1 nM.

The values are drawn from patent US20240209034A1 (priority 2021, published 2024).
